DMS reactivity of the HIV-1 5' RNA in monomer and dimer

Source: Ye et al. 2022 (doi:10.1038/s41594-022-00746-2), supplementary data.

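Randomly mutated transcripts starting with one, two or three G (1G, 2G, 3G), capped or uncapped, were folded for 30 min at 37 °C. Monomer and dimer bands were cut from native gels after folding in high salt (300 mM KCl, 5 mM MgCl2) or low salt (40 mM KCl, 0.1 mM MgCl2). Gel slices were treated with 170 mM dimethyl sulfate for 15 min at 37 °C and read by mutational profiling against an ethanol control.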

The 5' region of HIV-1 NL4-3 RNA (positions 1-437):
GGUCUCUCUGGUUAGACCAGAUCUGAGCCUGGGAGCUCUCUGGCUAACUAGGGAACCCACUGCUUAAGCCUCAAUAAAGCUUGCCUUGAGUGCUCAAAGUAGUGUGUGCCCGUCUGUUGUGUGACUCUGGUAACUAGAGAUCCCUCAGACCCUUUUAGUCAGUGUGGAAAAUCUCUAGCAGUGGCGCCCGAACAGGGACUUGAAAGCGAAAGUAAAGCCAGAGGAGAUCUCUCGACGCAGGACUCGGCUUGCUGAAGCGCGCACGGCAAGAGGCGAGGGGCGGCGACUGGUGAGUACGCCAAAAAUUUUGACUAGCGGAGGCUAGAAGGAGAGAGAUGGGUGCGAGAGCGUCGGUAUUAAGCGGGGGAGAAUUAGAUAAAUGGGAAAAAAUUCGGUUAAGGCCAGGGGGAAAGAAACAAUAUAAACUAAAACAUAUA

Scale: normalised reactivity, A and C only; low values point to paired or protected bases, higher values to unpaired ones. One numbering serves 1G, 2G and 3G. A position is written with its base.

* C185 (domain PBS) -> 3G uncapped high-salt monomer 0.50; 2G capped low-salt monomer 0.44
* C187 (domain PBS) -> 3G uncapped high-salt monomer 0.03; 2G capped low-salt monomer 0.03
* C188 (domain PBS) -> 3G uncapped high-salt monomer 0.06; 2G capped low-salt monomer 0.06
* C189 (domain PBS) -> 3G uncapped high-salt monomer 0.09; 2G capped low-salt monomer 0.08
* A191 (domain PBS) -> 3G uncapped high-salt monomer 0.41; 2G capped low-salt monomer 0.39
* A192 (domain PBS) -> 3G uncapped high-salt monomer 0.84; 2G capped low-salt monomer 0.84
* C193 (domain PBS) -> 3G uncapped high-salt monomer 0.91; 2G capped low-salt monomer 0.85
* A194 (domain PBS) -> 3G uncapped high-salt monomer 1.10; 2G capped low-salt monomer 1.08
* A198 (domain PBS) -> 3G uncapped high-salt monomer 0.58; 2G capped low-salt monomer 0.58
* C199 (domain PBS) -> 3G uncapped high-salt monomer 0.45; 2G capped low-salt monomer 0.45
* A203 (domain PBS) -> 3G uncapped high-salt monomer 0.52; 2G capped low-salt monomer 0.48
* A204 (domain PBS) -> 3G uncapped high-salt monomer 0.71; 2G capped low-salt monomer 0.68
* A205 (domain PBS) -> 3G uncapped high-salt monomer 0.33; 2G capped low-salt monomer 0.28
* C207 (domain PBS) -> 3G uncapped high-salt monomer 0.44; 2G capped low-salt monomer 0.47
* A209 (domain PBS) -> 3G uncapped high-salt monomer 0.47; 2G capped low-salt monomer 0.46
* A210 (domain PBS) -> 3G uncapped high-salt monomer 0.55; 2G capped low-salt monomer 0.55
* A211 (domain PBS) -> 3G uncapped high-salt monomer 0.43; 2G capped low-salt monomer 0.40
* A214 (domain PBS) -> 3G uncapped high-salt monomer 0.28; 2G capped low-salt monomer 0.24
* A215 (domain PBS) -> 3G uncapped high-salt monomer 0.56; 2G capped low-salt monomer 0.48
* A216 (domain PBS) -> 3G uncapped high-salt monomer 0.64; 2G capped low-salt monomer 0.53
* C218 (domain antiPAS) -> 3G uncapped high-salt monomer 0.03; 2G capped low-salt monomer 0.03
* C219 (domain antiPAS) -> 3G uncapped high-salt monomer 0.03; 2G capped low-salt monomer 0.04
* A220 (domain antiPAS) -> 3G uncapped high-salt monomer 0.31; 2G capped low-salt monomer 0.33
* A222 (domain antiPAS) -> 3G uncapped high-salt monomer 0.25; 2G capped low-salt monomer 0.27
* A225 -> 3G uncapped high-salt monomer 0.80; 2G capped low-salt monomer 0.76
* A227 (domain CU) -> 3G uncapped high-salt monomer 0.35; 2G capped low-salt monomer 0.27
* C229 (domain CU) -> 3G uncapped high-salt monomer 0.34; 2G capped low-salt monomer 0.26
* C231 (domain CU) -> 3G uncapped high-salt monomer 0.20; 2G capped low-salt monomer 0.17
* C233 (domain CU) -> 3G uncapped high-salt monomer 0.33; 2G capped low-salt monomer 0.30
* A235 -> 3G uncapped high-salt monomer 0.57; 2G capped low-salt monomer 0.64
* C236 -> 3G uncapped high-salt monomer 0.44; 2G capped low-salt monomer 0.53
* C238 -> 3G uncapped high-salt monomer 0.78; 2G capped low-salt monomer 0.74
* A239 -> 3G uncapped high-salt monomer 0.59; 2G capped low-salt monomer 0.55
* A242 -> 3G uncapped high-salt monomer 0.76; 2G capped low-salt monomer 0.83
* C243 (domain SL1) -> 3G uncapped high-salt monomer 0.05; 2G capped low-salt monomer 0.07
* C245 (domain SL1) -> 3G uncapped high-salt monomer 0.36; 2G capped low-salt monomer 0.25
* C248 (domain SL1) -> 3G uncapped high-salt monomer 0.06; 2G capped low-salt monomer 0.06
* C252 (domain SL1) -> 3G uncapped high-salt monomer 0.30; 2G capped low-salt monomer 0.23
* A255 (domain SL1) -> 3G uncapped high-salt monomer 0.49; 2G capped low-salt monomer 0.41
* A256 (domain SL1) -> 3G uncapped high-salt monomer 0.73; 2G capped low-salt monomer 0.78
* C258 (domain SL1) -> 3G uncapped high-salt monomer 0.27; 2G capped low-salt monomer 0.35
* C260 (domain SL1) -> 3G uncapped high-salt monomer 0.38; 2G capped low-salt monomer 0.45
* C262 (domain SL1) -> 3G uncapped high-salt monomer 0.31; 2G capped low-salt monomer 0.41
* A263 (domain SL1) -> 3G uncapped high-salt monomer 0.20; 2G capped low-salt monomer 0.22
* C264 (domain SL1) -> 3G uncapped high-salt monomer 0.41; 2G capped low-salt monomer 0.46
* C267 (domain SL1) -> 3G uncapped high-salt monomer 0.12; 2G capped low-salt monomer 0.17
* A268 (domain SL1) -> 3G uncapped high-salt monomer 0.25; 2G capped low-salt monomer 0.27
* A269 (domain SL1) -> 3G uncapped high-salt monomer 0.45; 2G capped low-salt monomer 0.44

The first 6 entries again:

position,domain,3G uncapped high-salt monomer,2G capped low-salt monomer
C185,PBS,0.50,0.44
C187,PBS,0.03,0.03
C188,PBS,0.06,0.06
C189,PBS,0.09,0.08
A191,PBS,0.41,0.39
A192,PBS,0.84,0.84